Pooled drug test results. Numbers come from NIAID ChemDB, via PubChem.

Common to all: whole-cell or culture tests; organism: Mycobacterium tuberculosis

ECn is the concentration giving n% inhibition of infection, replication or growth.

SMILES	mutations	read by	measure	strain	tested at	value
Cc1ccc(NC(=O)CC(=O)n2nc(-c3ccccc3)c(N=Nc3ccccc3C(=O)O)c2-c2ccccc2)cc1		BACTEC	inhibition	H37Rv	12.5 µg/mL	73%
Cc1ccc(-c2ccc(Cl)cc2)n1C1CCCCC1			MIC	103471		8 µg/mL
Cc1c(Cl)cccc1N=Nc1c(O)c2ccc([N+](=O)[O-])cc2[nH]c1=O		resazurin	inhibition	H37Rv	6.25 µg/mL	98%
COc1ccc(-c2nc(NCCCN3CCOCC3)[nH]c(=O)c2C#N)cc1			MIC	H37Ra		>50 µg/mL
CCn1cc(C(=O)O)c(=O)c2cc(F)c(N3CCN(Cn4c(O)c(N=NC(N)=O)c5ccccc54)CC3)cc21		BACTEC	inhibition	H37Rv	12.5 µg/mL	86%
O=C(CCN1C(=O)/C(=C/c2ccc3c(c2)OCO3)SC1=S)NNC(=O)c1ccncc1			MIC	H37Rv		54.82 µM
CC1(C)C=CC2=C(O1)C(=O)c1ccccc1C2=O		BACTEC	inhibition	H37Rv	12.5 µg/mL	70%
N#Cc1c(-c2cccnc2)nc(NC2CCCCCC2)[nH]c1=O			MIC	H37Ra		>50 µg/mL
CO[C@H]1/C=C/O[C@@]2(C)Oc3c(C)c(O)c4c(O)c(c5c(c4c3C2=O)NC2(CCN(CC(C)C)CC2)N=5)=NC(=O)/C(C)=C\C=C\[C@H](C)[C@H](O)[C@@H](C)[C@@H](O)[C@@H](C)[C@H](OC(C)=O)[C@@H]1C			MIC	S-5M (susceptible)		0.05 µg/mL
CC(C)(C)OC(=O)NC1C2CN(c3cc4c(=O)c(C(=O)O)c5n(c4cc3[N+](=O)[O-])CS5)CC21	MDR-TB	agar	MIC	H37Rv		0.19 µM
CC(=O)N(N=O)c1cc(Cl)ccc1Cl		BACTEC	MIC bound	H37Rv		>12.5 µg/mL
CC(=O)NC[C@H]1CN(c2ccc(N3CCN(c4ccc([N+](=O)[O-])s4)CC3)c(F)c2)C(=O)O1			MIC	SGPGI		1 µg/mL
Nc1ccc2c(N3CCCCC3)cc(N3CCCCC3)nc2n1		BACTEC	inhibition	H37Rv	6.25 µg/mL	72%
O=C(CSc1nc2ccccc2[nH]1)N=Nc1c(O)[nH]c2ccccc12			EC50	H37Rv		>12 µg/mL
O=C(CCN1C(=O)/C(=C/c2ccc(OCc3ccccc3)cc2)SC1=S)NNC(=O)c1ccccc1			MIC	H37Rv		24.18 µM
Cc1cccc(N=Nc2c(O)c3cc(-c4ccccc4)ccc3oc2=O)c1		resazurin	MIC	H37Rv		<6.25 µg/mL
Cc1onc(-c2c(F)cccc2F)c1C(=O)N1CCN(c2cc3c(=O)c(C(=O)O)c4n(c3cc2F)CS4)CC1		agar	MIC	H37Rv		11.23 µM
O=[N+]([O-])c1cccc(C=NCCN2CCN(CCN=Nc3cccc([N+](=O)[O-])c3O)C2c2cccc([N+](=O)[O-])c2O)c1O		resazurin	inhibition	H37Rv	6.25 µg/mL	15%
COc1cc2c(cc1OC)CN(c1cc3c(=O)c(C(=O)O)c4n(c3cc1[N+](=O)[O-])CS4)CC2		agar	MIC	H37Rv		0.83 µM
c1ccc(-c2nc3sc(C4CCCCC4)nn3c2CN2CCCCC2)cc1		BACTEC	inhibition	H37Rv	6.25 µg/mL	<90%
C=C1C(=O)OC2CC3(C)OC3C3OC3C3=CC(OC3=O)C12		BACTEC	inhibition	H37Rv	12.8 µg/mL	12%
CCCCCCn1c(C)cc(CN2CCN(C)CC2)c1C			EC50	H37Rv		<12.5 µg/mL
CN1c2ccccc2CCC1CCc1ccc2c(c1)OCO2			MIC	MT9		>339 µg/mL
Cc1cccc(Nc2sc(C(=O)c3cc4cc(Cl)ccc4o3)c(N)c2C#N)c1		BACTEC	MIC bound	H37Rv		>12.5 µg/mL
O=c1[nH]c2cc([N+](=O)[O-])ccc2c(O)c1N=Nc1ccc(Cl)c(F)c1		resazurin	MIC	H37Rv		<6.25 µg/mL
CC[C@H](C)N1CCN(c2cc(=O)c3nc4c(oc3c2)c2c(=O)c3c(O)c(C)c5c(c34)=C(O)[C@@](C)(O/C=C/[C@H](OC)[C@@H](C)[C@@H](OC(C)=O)[C@H](C)[C@H](O)[C@H](C)[C@@H](O)[C@@H](C)/C=C/C=C(/C)C(=O)N2)O5)CC1			MIC50	16 strains (rifampicin-susceptible)		0.025 µg/mL
CCc1ccc(C(=O)N/N=C(\C)[C@]2(O)Cc3c(O)c4c(c(O)c3[C@H](O[C@H]3C[C@H](N)[C@H](O)[C@H](C)O3)C2)C(=O)c2c(OC)cccc2C4=O)cc1			MIC	CS-R		6.3 µg/mL
O=C(O)c1c2n(c3cc(F)c(N4CCN(C(=O)c5ccco5)CC4)cc3c1=O)CS2	MDR-TB	agar	MIC	H37Rv		14.55 µM
N#CCCN(C1=NN(C(=O)CC(=O)Nc2ccc(Cl)cc2)C(c2ccccc2)C1)c1ccc(Cl)cc1		resazurin	inhibition	H37Rv	6.25 µg/mL	-10%
O=c1oc2ccc(-c3ccccc3)cc2c(O)c1N=Nc1c(Cl)cccc1Cl		resazurin	inhibition	H37Rv	6.25 µg/mL	23%
CCOC(=O)N1C=CC2Oc3c(Cl)c(Cl)c(Cl)c(Cl)c3OC2C=N1		BACTEC	MIC bound	H37Rv		>6.25 µg/mL
C=CCN1C(=O)C(C)S/C1=N/N=C1\C(=O)Nc2ccc(Br)cc21			MIC	H37Rv		>12.5 µg/mL
Cc1ccc(-c2nc(N3CCc4ccccc4C3)[nH]c(=O)c2C#N)cc1			MIC	H37Ra		>50 µg/mL
CCn1cc(C(=O)O)c(=O)c2cc(F)c(N3CCN(CN4C(=O)C(=O)c5cc(Br)ccc54)CC3)cc21		BACTEC	inhibition	H37Rv	12.5 µg/mL	90%
CC[C@@H](CO)NCCN[C@@H](CC)CO			MIC	H37Rv		7.64 µM
Cc1nn(C(=O)c2ccc(Cl)cc2)c2c1C(/C=C/c1ccccc1)SC(N)=N2		BACTEC	MIC bound	H37Rv		>12.5 µg/mL
CCC(C)N1CCN(c2cc(=O)c3nc4c(oc3c2)c2c(=O)c3c(O)c(C)c5c(c34)=C(O)[C@@](C)(O/C=C/[C@H](OC)[C@@H](C)[C@@H](OC(C)=O)[C@H](C)[C@H](O)[C@H](C)[C@@H](O)[C@@H](C)/C=C/C=C(/C)C(=O)N2)O5)CC1			MIC90	16 strains (rifampicin-susceptible)		3.13 µg/mL
O=c1[nH]c2c(Cl)c(Cl)ccc2c(O)c1N=Nc1ccccc1		resazurin	inhibition	H37Rv	6.25 µg/mL	85%
CCn1cc(C(=O)O)c(=O)c2cc(F)c(N3CCN(Cn4c(O)c(N=NC(=O)c5ccncc5)c5ccccc54)CC3)cc21		BACTEC	EC50	H37Rv		<12.5 µg/mL
Cc1cccc(C(N)=Nc2nc(-c3ccccn3)cc3ccccc23)c1			MIC	J-2749		0.5 µg/mL
CCN(CC)CCCC(C)Nc1nc(-c2ccc(C)cc2)c(C#N)c(=O)[nH]1			MIC	H37Ra		>50 µg/mL
C=CCN=C(N=Nc1c(O)[nH]c2ccccc12)SCC(=O)c1ccc([N+](=O)[O-])cc1			MIC	H37Rv		>12.5 µg/mL
Cc1c(CN2CCOCC2)cc(-c2ccc(Cl)cc2)n1C1CCCCC1			MIC	103471		8 µg/mL
C[C@@H]1CN(c2c(F)c(N)c3c(=O)c(C(=O)O)cn(C4CC4)c3c2F)C[C@H](C)N1			MIC	MDR-2037 (MDR)		0.1 µg/mL
O=C(O)c1c2n(c3cc([N+](=O)[O-])c(N4CCC(O)(c5ccc(Cl)cc5)CC4)cc3c1=O)CS2		agar	MIC	H37Rv		0.8 µM
CN(C)c1ccc(C(C2=C(O)c3ccccc3C(=O)C2=O)C2=C(O)c3ccccc3C(=O)C2=O)cc1		BACTEC	inhibition	H37Rv	12.8 µg/mL	34%
CCN(CC)CCCC(C)Nc1nc(-c2ccc(N(C)C)cc2)c(C#N)c(=O)[nH]1			MIC	H37Ra		>50 µg/mL
C/C=c1\[nH]c(=O)/c(=C/c2ccc(Cl)cc2)[nH]c1=O		BACTEC	inhibition	H37Rv	12.5 µg/mL	-16%
CCCCCc1cc(OC)c2ccccc2n1			MIC	MT6		6.25 µg/mL
O=C(O)c1c2n(c3cc([N+](=O)[O-])c(N4CCC5(CC4)OCCO5)cc3c1=O)CS2	MDR-TB	agar	MIC	H37Rv		<0.09 µM
O=S1(=O)CCNc2ccccc2O1		BACTEC	inhibition	H37Rv	12.5 µg/mL	10%
O/N=C/c1c(-c2ccccc2)nc2sc(-c3ccco3)nn12		BACTEC	inhibition	H37Rv	6.25 µg/mL	<90%
O=C(Nc1cc(Cl)ccc1Cl)P(=O)(O)c1ccccc1		BACTEC	MIC bound	H37Rv		>12.5 µg/mL
C=CCn1c(-c2ccccc2)cs/c1=N\N=C1/C(=O)Nc2ccc(Br)cc21.O			MIC	H37Rv		>12.5 µg/mL
O=c1oc2ccccc2c2c1Cc1c(oc3ccc4ccccc4c3c1=O)O2		BACTEC	inhibition	H37Rv	12.5 µg/mL	0%
O=C(O)c1c2n(c3cc(F)c(N4CCN(C(=O)C5COc6ccccc6O5)CC4)cc3c1=O)CS2		agar	MIC	H37Rv		6.29 µM
O/N=C/c1c(-c2ccccc2)nc2sc(-c3cccs3)nn12		BACTEC	inhibition	H37Rv	6.25 µg/mL	<90%
Cc1ccc2c(Cl)c(C)c(Cl)nc2n1		BACTEC	EC50	H37Rv		>6.25 µg/mL
CCCCCCn1c(C)c(CN2CCOCC2)c(CN2CCOCC2)c1-c1ccc(Cl)cc1			MIC	H37Rv		<12.5 µg/mL
CCCCn1c(-c2ccc(OC)cc2)cs/c1=N\N=C1/C(=O)Nc2ccccc21			inhibition	H37Rv	12 µg/mL	49%
Clc1cc(N2CCOCC2)nc2nc(N3CCOCC3)ccc12		BACTEC	EC50	H37Rv		>6.25 µg/mL
CC1=CC2OC3C(O)C(O)C(C)(C2(COC(=O)CCl)CC1)C31CO1		BACTEC	MIC bound	H37Rv		>12.5 µg/mL
Cc1ccc(N2C(=O)C(C)S/C2=N\N=C2/C(=O)Nc3ccccc32)cc1			MIC	H37Rv		>12.5 µg/mL
CC(=O)C1(N=Nc2ccc(S(=O)(=O)NC3NCCS3)cc2)CCOC1=O		BACTEC	MIC bound	H37Rv		>12.5 µg/mL
O=C(CSc1nc2ccc(Cl)cc2c(=O)n1-c1ccccc1)N=Nc1c(O)[nH]c2ccc(Br)cc12			MIC	H37Rv		>12.5 µg/mL
COCCCC12C=C(OC)C(=O)C=C1OC(c1cc(OC)c(OC)c(OC)c1)C2C		BACTEC	MIC	H37Rv		≥12.5 µg/mL
CN1CCN(c2cc3c(=O)c(C(=O)O)c4n(c3cc2[N+](=O)[O-])CS4)CC1c1ccccc1	MDR-TB	agar	MIC	H37Rv		3.45 µM
COc1cccc2c1C(=O)c1c(O)c3c(c(O)c1C2=O)C[C@@](O)(/C(C)=N/NC(=O)c1cccc([N+](=O)[O-])c1)C[C@H]3O[C@H]1CC(N)[C@H](O)[C@H](C)O1		BACTEC	MIC	H37Rv		≥12.5 µg/mL
CCn1cc(C(=O)O)c(=O)c2cc(F)c(N3CCN(CN4C(=O)C(=O)c5cc(Cl)ccc54)CC3)cc21		BACTEC	EC50	H37Rv		<12.5 µg/mL
Cc1ccc2c(Cl)c(Cc3ccccc3)c(N3CCOCC3)nc2n1		BACTEC	inhibition	H37Rv	6.25 µg/mL	20%
C=CCNC(=S)N=Nc1c(O)[nH]c2ccccc12			EC50	H37Rv		>12 µg/mL
Cc1ccc(-c2ccc(Cl)cc2)n1Cc1ccccc1			MIC	H37Rv		<12.5 µg/mL
CCN(CC)CCCC(C)Nc1nc(-c2cccnc2)c(C#N)c(=O)[nH]1			MIC	H37Ra		>50 µg/mL
O=c1oc2ccc(-c3ccccc3)cc2c(O)c1N=Nc1cccc(F)c1Cl		resazurin	MIC	H37Rv		<6.25 µg/mL
Cn1c(-c2ccc(Br)cc2)cs/c1=N\N=C1/C(=O)Nc2ccccc21.O			inhibition	H37Rv	12 µg/mL	14%
O=c1oc2ccc3ccccc3c2c(O)c1N=Nc1ccc(Cl)cc1		resazurin	inhibition	H37Rv	6.25 µg/mL	88%
[Cl-].[Cl-].c1ccc([P+](Cc2ccc(C[P+](c3ccccc3)(c3ccccc3)c3ccccc3)cc2)(c2ccccc2)c2ccccc2)cc1		BACTEC	MIC bound	H37Rv		>12.5 µg/mL
COc1cc(/C=C2\SC(=S)N(CCC(=O)NNC(=O)c3cccnc3)C2=O)cc(OC)c1OC			MIC	H37Rv		49.8 µM
CCCCNc1nc(-c2ccc(C)cc2)c(C#N)c(=O)[nH]1			MIC	H37Ra		>50 µg/mL
Brc1ccc(-c2nc3sc(-c4cccs4)nn3c2CN2CCCCC2)cc1		BACTEC	inhibition	H37Rv	6.25 µg/mL	<90%
CCCCNc1nc(-c2cccnc2)c(C#N)c(=O)[nH]1			MIC	H37Ra		>50 µg/mL
c1ccc(-c2nc3sc(C4CCCCC4)nn3c2CN2CCCC2)cc1		BACTEC	inhibition	H37Rv	6.25 µg/mL	<90%
Clc1ccc2c(N3CCOCC3)cc(N3CCOCC3)nc2n1		BACTEC	inhibition	H37Rv	6.25 µg/mL	1%

Repeating the final 6 entries:

SMILES	mutations	read by	measure	strain	tested at	value
COc1cc(/C=C2\SC(=S)N(CCC(=O)NNC(=O)c3cccnc3)C2=O)cc(OC)c1OC			MIC	H37Rv		49.8 µM
CCCCNc1nc(-c2ccc(C)cc2)c(C#N)c(=O)[nH]1			MIC	H37Ra		>50 µg/mL
Brc1ccc(-c2nc3sc(-c4cccs4)nn3c2CN2CCCCC2)cc1		BACTEC	inhibition	H37Rv	6.25 µg/mL	<90%
CCCCNc1nc(-c2cccnc2)c(C#N)c(=O)[nH]1			MIC	H37Ra		>50 µg/mL
c1ccc(-c2nc3sc(C4CCCCC4)nn3c2CN2CCCC2)cc1		BACTEC	inhibition	H37Rv	6.25 µg/mL	<90%
Clc1ccc2c(N3CCOCC3)cc(N3CCOCC3)nc2n1		BACTEC	inhibition	H37Rv	6.25 µg/mL	1%

Rows are shuffled and stem from different studies. An empty or dashed field is not shown. MIC bound: limit read from a one-dose screen. Inhibition is in % at the dose shown (toxicity tests: loss of growth or viability). A number after MIC or MFC names an inhibition level or a share of isolates.